# Data taken from patent US8198321B2, “Anti-microorganism terpenic composition” (priority 2006, dated 2012).
# Like-named read-outs stand apart in the source and are kept apart here.
# Conditions: rabbit
substance,measurement,setting,value
zinc ascorbo-camphorate [Third preparation],infiltration observed and vascular congestion (histopathology),2.1 μg/milliliter intravaginal daily for 10 days,“minimal”
same,infiltration observed and vascular congestion (histopathology),4200 μg/milliliter intravaginal daily for 10 days,“minimal”
